Measured values from several laboratories, pooled; numbers as filed in NIAID ChemDB.

All rows: target-level tests; agent: Hepatitis C virus; target: Nonstructural protein 5B; endpoint: IC50

ICn: concentration for n% inhibition. Conditions beyond the fields shown may differ between rows. a–b is a range or a potency band.

smiles	result
O=C(O)c1ccc(N2C(=O)C(=Cc3ccc(-c4ccccc4C(F)(F)F)o3)SC2=S)cc1	≤1 µM
COc1nc(Nc2ccc3cn[nH]c3c2)nc(NN2CCOCC2)n1	1–10 µg/mL
CCOC(=O)c1ccc(NC(=O)COc2cc3c(C(=O)NC)c(-c4ccc(F)cc4)oc3cc2N(C)S(C)(=O)=O)cc1	≤0.5 µM
CC(=O)c1ccc(CCC2(C3CCCC3)CC(=O)CC(=O)O2)cc1F	1–10 µM
Cc1ccc(-c2ccc(C=C3SC(=S)N(c4ccc(C(=O)O)cc4)C3=O)o2)nc1	≤1 µM
CNC(=O)c1c(-c2ccc(F)cc2)oc2cc(N(CCOC)S(C)(=O)=O)c(OC)cc12	≤0.5 µM
CC(C)(C)c1cc2nc(N)sc2cc1SC1=C(O)CC(C2CCCC2)(C2CCCC2)OC1=O	10–50 µM
COc1nc(NCCc2c[nH]c3ccccc23)nc(Nc2ccc3[nH]ncc3c2)n1	>10 µg/mL
O=C(O)CCN1C(=O)C(=Cc2ccc(-c3cccc(Cl)c3)o2)SC1=S	≤1 µM
CNC(=O)CN1CCN(c2nc(Nc3ccc4[nH]ncc4c3)nc(OC)n2)CC1	>10 µg/mL
CCOCc1cc(-c2cc3oc(-c4ccc(F)cc4)c(C(=O)NC)c3cc2OC)no1	≤0.5 µM
O=C(O)c1ccc(-c2ccc(C=C3SC(=S)N(c4ccc(C(=O)O)cc4)C3=O)o2)cc1	≤1 µM
CNC(=O)c1c(-c2ccc(F)cc2)oc2cc(NC(C)=O)c(OC(C)C)cc12	≤0.5 µM
CCOC(=O)C1=CN(N2CCN(c3nc(Nc4ccc5cn[nH]c5c4)nc(OC)n3)CC2)C(SC)N=C1	>10 µg/mL
CCN(CC)c1cc2oc(-c3ccc(F)cc3)c(C(=O)NC)c2cc1OC(C)C	≤0.5 µM
CNC1N=C(OC)N=C(Nc2ccc3cn[nH]c3c2)N1CN	>10 µg/mL
Cc1cc(C)nc(-c2ccc(C=C3SC(=S)N(c4ccc(C(=O)O)cc4)C3=O)o2)c1	≤1 µM
CNC(=O)c1c(-c2ccc(F)cc2)oc2cc(-c3cnc[nH]3)c(OC)cc12	≤0.5 µM
O=C(O)c1ccc(N2C(=O)C(=Cc3ccc(-c4ccc(C(F)(F)F)cn4)o3)SC2=S)cc1	≤1 µM
CC(C)Oc1ccc(CCC2(C3CCCC3)CC(O)=C(Sc3nccs3)C(=O)O2)cc1Cl	<1 µM
COc1nc(NCCN2CCOCC2)nc(Nc2ccc3[nH]ncc3c2)n1	>10 µg/mL
O=C(O)c1ccc(-n2c(O)c(C=c3cc/c(=C4\C=c5ccccc5=N4)o3)sc2=S)cc1	≤1 µM
COc1nc(NCCc2ccccn2)nc(Nc2ccc3[nH]ncc3c2)n1	1–10 µg/mL
O=C(O)c1ccc(N2C(=O)C(=Cc3ccc(-c4ccc(Cl)s4)o3)SC2=S)cc1	≤1 µM
CNC(=O)c1c(-c2ccc(F)cc2)oc2cc(N(C)S(C)(=O)=O)c(OCc3ccc(C(=O)O)cc3)cc12	≤0.5 µM
COc1ccc(CCC2(C3CCCC3)CC(=O)CC(=O)O2)cn1	10–50 µM
COc1nc(Nc2ccc3cn[nH]c3c2)nc(N2CCC(O)CC2)n1	1–10 µg/mL

For reference, 3 entries again:

COc1nc(NCCc2c[nH]c3ccccc23)nc(Nc2ccc3[nH]ncc3c2)n1 ; result: >10 µg/mL
CCOCc1cc(-c2cc3oc(-c4ccc(F)cc4)c(C(=O)NC)c3cc2OC)no1 ; result: ≤0.5 µM
Cc1ccc(-c2ccc(C=C3SC(=S)N(c4ccc(C(=O)O)cc4)C3=O)o2)nc1 ; result: ≤1 µM